Results taken from PubChem BioAssay AID493005 (National Center for Advancing Translational Sciences (NCATS), 2010).
The entries are a selection whose mix differs from that of the whole data set. Active and inactive are the calls of the source. The call rests on the fitted dose curve; in most records, active means well fitted inhibition curve with a large enough effect in the main read-out, with a control signal flat (not every such curve was filed as active); inconclusive means small, poorly fitted or top-dose-only effect, or effect the other way, or a change in a side signal; inactive means no such curve, though single readings can be large or run the other way.

Amino acid sequences for entries named in this document (tags omitted).
UniProt Q99816, whole entry: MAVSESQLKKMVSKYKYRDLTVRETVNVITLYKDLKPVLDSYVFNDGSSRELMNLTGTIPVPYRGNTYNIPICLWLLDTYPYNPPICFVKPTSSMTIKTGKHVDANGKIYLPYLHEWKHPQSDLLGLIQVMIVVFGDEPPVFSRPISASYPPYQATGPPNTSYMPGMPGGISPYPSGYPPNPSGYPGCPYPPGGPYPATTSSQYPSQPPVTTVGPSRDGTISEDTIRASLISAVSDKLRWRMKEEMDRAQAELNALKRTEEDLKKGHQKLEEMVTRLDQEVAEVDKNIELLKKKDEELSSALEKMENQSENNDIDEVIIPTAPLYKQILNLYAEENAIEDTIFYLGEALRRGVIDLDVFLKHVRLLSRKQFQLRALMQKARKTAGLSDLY

target: Tumor susceptibility gene 101 protein (Homo sapiens) (UniProt Q99816); assay: qHTS Assay for Iinhibitors of HIV-1 Budding by Blocking the Interaction of PTAP/TSG101; conditions: Fluorescence polarization, FITC-PTAP peptide / Tsg101 binding; at 115 µM (top of the series); further: % of control where 0% means no effect
Source text: NIH Molecular Libraries Probe Production Network [MLPCN] NIH Chemical Genomics Center [NCGC] MLPCN Grant: 1 R03 MH087464-01A1 PI Name: Dr. Eric Freed, NCI NCGC Assay Overview: Stages of the HIV-1 replication cycle, specifically virus assembly and release, provide underexploited targets for the development of novel antiviral inhibitors. The late stages of HIV-1 replication are mediated by the Gag precursor protein, Pr55Gag. Expression of Pr55Gag is both necessary and sufficient for the production of virus-like particles from Gag-expressing cells. The Gag protein hijacks key host proteins involved in endocytic machinery of the host cell to promote endosomal processing and viral budding. The budding process requires a direct interaction between a […] (PTAP) motif in the p6 domain of Gag and the cellular endosomal sorting protein known as Tsg101. In this way, the Gag PTAP motif promotes the host cells to recruit viral particles to the plasma membrane where the new viral particles are released, effectively turning the host cells into viral factories. A fluorescence anisotropy assay has been developed to quantitatively measure the PTAP-Tsg101 interaction which can be used to screen for inhibitors of this interaction.
NCGC Assay Protocol Summary: Two uL of the Tsg101 binding domain in buffer (10 mM HEPES pH 7.5; 0.15 M NaCl, 0.01% Tween 20; 3 mM EDTA;0.1 mM TCEP) was dispensed into Greiner black MB 1536-well plates (final concentration 10 uM). Then, 23 nL of compounds or DMSO were delivered to each well using a pin tool. Finally, 2 uL of a FITC-labeled peptide containing the PTAP motif (1) in the same buffer was dispensed (50 nM final concentration) and the binding was allowed to proceed for 20 min. at r.t. Fluorescent polarization was determined using FITC excitation and polarized emission filters on a Perkin Elmer Viewlux. Keywords: Tsg101, PTAP, Gag, HIV, fluorescent polarization, MLSMR, MLPCN, NIH Roadmap, qHTS, NCGC

SMILES	activity change, negative = inhibition
COc1cc(OC)cc(C(=O)NCC2(N3CCCCC3)CCCCC2)c1	inactive: 0.258%
CC(=O)N(c1ccccc1)C1CCNCC1	inactive: -11.4%
Cc1ccc(NC2(C#N)CCN(Cc3ccccc3)CC2)cc1	inactive: 1.61%
Cc1ccc(C(=O)NCC2(N3CCCCC3)CCCCC2)o1	inactive: 0.156%
Fc1ccccc1NC1CCN(Cc2ccccc2)CC1	inactive: -4.49%
Cc1ccccc1NC1(C#N)CCN(Cc2ccccc2)CC1	inactive: -3.56%
CCN1CCC(Nc2cccc(F)c2)CC1	inactive: -0.839%
O=C(NCC1(N2CCCCC2)CCCCC1)c1ccco1	inactive: -2.54%
CN(C)c1ccc(C(=O)NCC2(N3CCCCC3)CCCCC2)cc1	inactive: -4.34%
Cn1c(=O)[nH]cc(N(CCCl)CCCl)c1=O	inactive: -1.71%
CCOc1ncccc1C(=O)NCC1(N2CCOCC2)CCCCC1	inactive: -0.408%
CN1CCC(Nc2ccc(F)c(Cl)c2)CC1	inactive: 2.4%
CCCOc1ccc(C(=O)NCC2(N(C)C)CCCCC2)cc1	inactive: -6.41%
CC(C)(C)OC(=O)N1CCC(Nc2ccccc2)CC1	inactive: -2.23%
O=C(O)C1(Nc2ccccc2)CCN(Cc2ccccc2)CC1	inactive: -4.3%
CCC(CO)(C(=O)OC1CN2CCC1CC2)c1ccccc1 (centres undefined)	inactive: -4.22%
COc1cccc(C(=O)N(c2cc(C)cc(C)c2)C2CCN(C(=O)OC(C)(C)C)CC2)c1	inactive: -2.27%
COc1cc(OC)cc(C(=O)NCC2(N3CCOCC3)CCCCC2)c1	inactive: -1.43%
CN1CCC(Nc2ccc(Cl)cc2)CC1	inactive: -3.85%
O=C(NCC1(N2CCOCC2)CCCCC1)c1cc(Br)ccc1Cl	inactive: 2.27%
COc1cc(C(=O)NCC2(N3CCOCC3)CCCCC2)cc(OC)c1C	inactive: -1.37%
COc1ccc(C(=O)NCC2(N3CCOCC3)CCCCC2)cc1OC	inactive: 2.99%
N/C(=N\O)c1c(N)no[n+]1[O-]	inactive: -2.52%
CCOC(=O)N1CCC(Nc2ccc(C)cc2)CC1	inactive: 1.09%
CCc1cc(C(=O)NCC2(N3CCCCC3)CCCCC2)sc1C	inactive: -1.93%
O=C(OC1CN2CCC1CC2)C1c2ccccc2C=Cc2ccccc21 (centres undefined)	inactive: -0.776%
O=C(O)c1cccc(Nc2c([N+](=O)[O-])cc([N+](=O)[O-])cc2[N+](=O)[O-])c1	inactive: -1.73%
CC(C)(C)OC(=O)N1CCC(N(C(=O)c2ccccc2)c2ccc(Cl)cc2)CC1	inactive: -3.01%
N#Cc1ccc(C(=O)NCC2(N3CCCCC3)CCCCC2)cc1	inactive: 0.0598%
